{"source": "PubChem BioAssay AID1259414 (Drosophila RNAi Screening Center, 2018)", "aim": "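Fly genes that alter Wolbachia amount inside host cells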 (primary screen)", "cells": "Drosophila JW18 cells infected with Wolbachia", "reagent": "long dsRNA against Drosophila genes, 0.25 µg dsRNA per well of a 384-well plate", "time to read-out": "5 days", "challenge": "cells persistently infected with Wolbachia before knock-down; no added drug", "measured": "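Automated imaging of bacterial rRNA staining divided by host cell count, reported as plate-normalised robust z-score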", "reading the numbers": "Wolbachia per cell robust z: higher = more Wolbachia per host cell than the plate typical", "hit rule": "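Hit when robust z is 1.5 or more, or -1.5 or less, in at least two of three replicates; excludes dsRNAs with several or no targets, genes not expressed in JW18 and well A1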", "note": "In all, the deposit lists about 24,000 reagents; this is a random part of those with a known target gene and a result. In the full data, about 1,210 (5%) were called active. 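Inactive calls also include excluded dsRNAs with several or no targets, genes unexpressed in JW18, and well A1, regardless of score.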 Names joined by + are all predicted targets of the reagent."}
{"gene knocked down": "CG15027", "DRSC id": "DRSC19608", "Wolbachia per cell robust z, rep 1": -4.4, "Wolbachia per cell robust z, rep 2": -1.81, "Wolbachia per cell robust z, rep 3": -0.0837, "Call": "active"}
{"gene knocked down": "CG13884", "DRSC id": "DRSC08354", "Wolbachia per cell robust z, rep 1": -3.58, "Wolbachia per cell robust z, rep 2": -0.981, "Wolbachia per cell robust z, rep 3": -2.27, "Call": "inactive"}
{"gene knocked down": "nsl1 (non-specific lethal 1)", "DRSC id": "DRSC15625", "Wolbachia per cell robust z, rep 1": 0.726, "Wolbachia per cell robust z, rep 2": 0.742, "Wolbachia per cell robust z, rep 3": 0.573, "Call": "inactive"}
{"gene knocked down": "CG10140", "DRSC id": "DRSC09704", "Wolbachia per cell robust z, rep 1": 0.451, "Wolbachia per cell robust z, rep 2": 1.04, "Wolbachia per cell robust z, rep 3": 1.29, "Call": "inactive"}
{"gene knocked down": "CG10140", "DRSC id": "DRSC26220", "Wolbachia per cell robust z, rep 1": 0.161, "Wolbachia per cell robust z, rep 2": 0.726, "Wolbachia per cell robust z, rep 3": 0.952, "Call": "inactive"}
{"gene knocked down": "CG14797 + CG32809", "DRSC id": "DRSC18562", "Wolbachia per cell robust z, rep 1": 0.968, "Wolbachia per cell robust z, rep 2": -2.56, "Wolbachia per cell robust z, rep 3": 0.853, "Call": "inactive"}

Hits, among the entries above:
{"gene knocked down": "CG15027", "DRSC id": "DRSC19608", "Wolbachia per cell robust z, rep 1": -4.4, "Wolbachia per cell robust z, rep 2": -1.81, "Wolbachia per cell robust z, rep 3": -0.0837, "Call": "active"}

The list goes on:
{"gene knocked down": "Nep6 (Neprilysin 6)", "DRSC id": "DRSC19877", "Wolbachia per cell robust z, rep 1": -0.0825, "Wolbachia per cell robust z, rep 2": -0.0333, "Wolbachia per cell robust z, rep 3": 2.36, "Call": "inactive"}
{"gene knocked down": "CG32148", "DRSC id": "DRSC09338", "Wolbachia per cell robust z, rep 1": -1.01, "Wolbachia per cell robust z, rep 2": -1.12, "Wolbachia per cell robust z, rep 3": -0.988, "Call": "inactive"}
{"gene knocked down": "CG32148", "DRSC id": "DRSC28787", "Wolbachia per cell robust z, rep 1": -0.196, "Wolbachia per cell robust z, rep 2": 0.419, "Wolbachia per cell robust z, rep 3": 0.553, "Call": "inactive"}
{"gene knocked down": "Ubc7 (Ubiquitin conjugating enzyme 7)", "DRSC id": "DRSC20299", "Wolbachia per cell robust z, rep 1": -1.25, "Wolbachia per cell robust z, rep 2": -0.0691, "Wolbachia per cell robust z, rep 3": -2.84, "Call": "inactive"}
{"gene knocked down": "CG17598", "DRSC id": "DRSC20636", "Wolbachia per cell robust z, rep 1": -5.68, "Wolbachia per cell robust z, rep 2": 0.623, "Wolbachia per cell robust z, rep 3": 0.138, "Call": "inactive"}
{"gene knocked down": "Gr10a (Gustatory receptor 10a)", "DRSC id": "DRSC18897", "Wolbachia per cell robust z, rep 1": 0.244, "Wolbachia per cell robust z, rep 2": 0.386, "Wolbachia per cell robust z, rep 3": -1.02, "Call": "inactive"}
{"gene knocked down": "Gr10a (Gustatory receptor 10a)", "DRSC id": "DRSC22792", "Wolbachia per cell robust z, rep 1": -1.5, "Wolbachia per cell robust z, rep 2": -0.676, "Wolbachia per cell robust z, rep 3": -1.92, "Call": "inactive"}
{"gene knocked down": "Gr10a (Gustatory receptor 10a)", "DRSC id": "DRSC26071", "Wolbachia per cell robust z, rep 1": -0.25, "Wolbachia per cell robust z, rep 2": -0.237, "Wolbachia per cell robust z, rep 3": 0.765, "Call": "inactive"}
{"gene knocked down": "SmydA-5 (SET and MYND domain containing, arthropod-specific, member 5)", "DRSC id": "DRSC04867", "Wolbachia per cell robust z, rep 1": 0.0806, "Wolbachia per cell robust z, rep 2": -0.672, "Wolbachia per cell robust z, rep 3": -0.485, "Call": "inactive"}
{"gene knocked down": "SmydA-5 (SET and MYND domain containing, arthropod-specific, member 5)", "DRSC id": "DRSC27930", "Wolbachia per cell robust z, rep 1": 1.3, "Wolbachia per cell robust z, rep 2": -13.3, "Wolbachia per cell robust z, rep 3": 0.352, "Call": "inactive"}
